PubChem BioAssay AID1259414 – Drosophila RNAi Screening Center – 2018
Test: 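Host factors increasing or decreasing Wolbachia levels in cultured fly cells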 (primary screen). Cells: Drosophila JW18 cells infected with Wolbachia. Knock-down reagent: long dsRNA against Drosophila genes, 0.25 µg dsRNA per well of a 384-well plate. Duration: 5 days. Conditions: cells persistently infected with Wolbachia before knock-down; no added drug. Measured: 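Automated imaging of bacterial rRNA staining divided by host cell count, reported as plate-normalised robust z-score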. Scale: Wolbachia per cell robust z: higher = more Wolbachia per host cell than the plate typical. Hit rule: 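Active if absolute robust z reaches 1.5 in two or more of three replicates, leaving out multi- or no-target dsRNAs, genes unexpressed in JW18 and A1 wells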.
In all, the deposit lists about 24,000 reagents; this is a random part of those with a known target gene and a result. Of all reagents, about 1,210 (5%) are marked active. 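Inactive calls also include excluded dsRNAs with several or no targets, genes unexpressed in JW18, and well A1, regardless of score.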 The numbers tell different reagents against one gene apart. A plus sign joins genes that one reagent is predicted to hit. Reagent sequences are not shown.

gene | reagent | Wolbachia per cell robust z, rep 1 | Wolbachia per cell robust z, rep 2 | Wolbachia per cell robust z, rep 3 | Outcome
CG3987 (GeneID 41822) | 1 | -2.12 | -2.02 | 1.93 | inactive
CG43134 (GeneID 12798107) | 1 | -1.31 | -0.0341 | -0.0494 | inactive
Spn85F (GeneID 41221) | 1 | -1.52 | -1.73 | -0.257 | inactive
aust (GeneID 34244) | 1 | 0.122 | -2.05 | 0.68 | inactive
aust (GeneID 34244) | 2 | -0.248 | 0.224 | -0.177 | inactive
Usp39 (GeneID 32881) | 1 | 0.254 | -0.572 | 1.01 | inactive
Usp39 (GeneID 32881) | 2 | -0.326 | -0.229 | -1.65 | inactive
Ntmt (GeneID 36022) | 1 | 0.958 | -2.24 | 0.304 | inactive
Ntmt (GeneID 36022) | 2 | 0.165 | 0.845 | -0.675 | inactive
CG34238 (GeneID 5740238) | 1 | -1.85 | -1.28 | -0.582 | inactive
Obsc (GeneID 3346201) | 1 | -2.28 | -1.54 | -0.0159 | inactive
Obsc (GeneID 3346201) | 2 | -0.0981 | -0.56 | 0.342 | inactive
Obsc (GeneID 3346201) | 3 | -0.307 | 0.339 | 0.0585 | inactive
Obsc (GeneID 3346201) | 4 | -5.28 | -0.294 | 0.346 | inactive
Obsc (GeneID 3346201) | 5 | -1.12 | 0.00811 | -0.0095 | inactive
nmdyn-D7 (GeneID 41174) | 1 | 0.402 | -0.42 | -0.352 | inactive
CG14418 (GeneID 31275) | 1 | -0.614 | -0.928 | -3.97 | inactive
Vmat (GeneID 3346192) | 1 | 0.305 | -0.0266 | 0.47 | inactive
Vmat (GeneID 3346192) | 2 | -2.5 | -2.49 | -1.28 | active
Vmat (GeneID 3346192) | 3 | -1.31 | -0.922 | -0.769 | inactive
Naa20B (GeneID 318982) | 1 | 0.854 | -1.4 | 0.154 | inactive
Naa20B (GeneID 318982) | 2 | -1.02 | -0.42 | -5.1 | inactive
Naa20B (GeneID 318982) | 3 | -2.23 | 0.181 | 0.293 | inactive
Ets21C (GeneID 33229) | 1 | 1.04 | -0.00352 | -2.22 | inactive
CG10459 (GeneID 36000) | 1 | -1.13 | -0.36 | -0.495 | inactive
CG10459 (GeneID 36000) | 2 | 0.3 | -0.328 | -0.72 | inactive
CG31358 + CG42504 + CG42505 | 1 | -2.11 | -0.755 | -2.07 | inactive
Hsp70Bbb + Hsp70Bb | 1 | 0.233 | 0.185 | 0.529 | inactive

A run of entries of the results above:
gene | reagent | Wolbachia per cell robust z, rep 1 | Wolbachia per cell robust z, rep 2 | Wolbachia per cell robust z, rep 3 | Outcome
Ntmt (GeneID 36022) | 2 | 0.165 | 0.845 | -0.675 | inactive
CG34238 (GeneID 5740238) | 1 | -1.85 | -1.28 | -0.582 | inactive
